According to US20260250325A1, “Antiviral Polypeptide Membrane Fusion Inhibitor, and Preparation Method and Application Thereof” (priority 2025, published 2026):

Test system: RSV A long virus strain
Format: cell-based
Details: CC50/IC50, HEp-2 cells
Method: In this embodiment, an RSV-A long virus strain was used as an infection virus in the present disclosure. The anti-RSV activity of the synthesized polypeptide was determined through CPE detection.
The inhibitory activity of the compounds of Table 1-1-Table 1-5, positive polypeptide in Table 1-11, and positive control T-118 against the RSV-A long virus strain was detected.
Human Epithelial Pharyngeal Carcinoma Cells (HEp-2) were from the American Type Culture Collection (ATCC), with a catalog number CCL-23. The cells were cultured in a DMEM culture solution in which 10% fetal bovine serum, 1% sodium pyruvate, 1% nonessential amino acids, 2 mM glutamine, 100 U/mL penicillin, and 100 μg/mL streptomycin were added. The RSV A long virus strain was from the ATCC, with a catalog number VR-26.
This study used a plaque reduction experiment to detect the in-vitro activity of a test sample against the RSV A long virus strain. The test sample and a control compound were tested at 8 concentrations in duplicated wells. The HEp-2 cells were digested with trypsin and then diluted to a concentration of 300,000 cells per milliliter by using an experimental culture solution. The diluted cells were added to a 96-well cell test board, with 100 μL per well, corresponding to 30000 cells per well. The cells were cultured overnight in a 37° C. incubator with 5% CO2. On the second day, the test sample was diluted in an experimental culture medium at a fold ratio. The sample diluted at a fold ratio and an equal volume of virus (100 PFU per well) were well mixed and incubated at 37° C. in 5% CO2 for 1 h. Then, the culture solution in the 96-well cell test board was discarded, the sample virus mixed solution (200 μL) was added to the 96-well cell culture plate, and incubated at 37° C. in 5% CO2 for 2 hours. After 2 h, the sample virus mixed solution was discarded, and 200 μL of maintenance culture medium containing 0.8% CMC and the corresponding concentration of the test sample was added. A cell control (cells, without compound treatment or viral infection) and a viral control (cell infection virus, without compound treatment) were set. The cells were cultured for 1 day in the 37° C. incubator with 5% CO2. One day after viral infection, the culture medium was discarded, the cells were fixed with 4% paraformaldehyde, and then permeabilization was performed with 0.5% Triton X-100. After the plate was washed with DPBS, an RSV-specific antibody (RSV antibody, diluted 1:3000) was added and incubated at 37° C. for 1 h. Then, a secondary antibody (donkey anti-goat IgG, diluted 1:500) and incubated at 37° C. for 1 h. The secondary antibody was discarded, a TrueBlue solution was added, dyeing was performed for 10 min; and the plate was washed with running water and then air-dried, and the number of spots in each well was counted by using a microplate imaging counter. Raw data was used for calculating the antiviral activity of the samples.
The raw data for plaque counts and cell viability tests were used for analyzing the antiviral activity and cytotoxicity of the test samples, respectively. A calculation formula was shown as follows.
% inhibition rate=100−(sample value-cell control average value)/(virus control average value-cell control average value)×100%
Non-linear fitting analysis was performed on the inhibition rate of the sample by using GraphPad Prism (version 10), so as to calculate the IC50 and CC50 values for the sample.
IC50: in an in-vitro antiviral activity experiment, IC50 represented an inhibition ability indicator of a compound to be tested against the Hep-2 cells infected by the RSV A long virus strain.

Q: Which “Safety index (SI)” value does the source give for `CC[C@H](C)[C@H](NC(=O)[C@H](CO)NC(=O)[C@H](C)NC(=O)[C@H](CC(=O)O)NC(=O)[C@H](Cc1ccccc1)NC(C)=O)C(=O)N[C@@H](CCC(=O)O)C(=O)N[C@@H](CCC(=O)O)C(=O)N[C@H](C(=O)N[C@@H](CC(N)=O)C(=O)N[C@@H](CCCNC(=N)N)C(=O)N[C@@H](CCCNC(=N)N)C(=O)N[C@H](C(=O)N[C@@H](CCC(=O)O)C(=O)N[C@@H](CCC(=O)O)C(=O)N[C@@H](CO)C(=O)N[C@@H](CC(C)C)C(=O)N[C@@H](CCCNC(=N)N)C(=O)N[C@@H](CCCNC(=N)N)C(=O)N[C@H](C(=O)N[C@@H](CCC(=O)O)C(=O)N[C@@H](CCC(=O)O)C(=O)N[C@@H](CO)C(=O)N[C@@H](CC(=O)O)C(=O)N[C@@H](CCCNC(=N)N)C(=O)N[C@@H](CCCNC(=N)N)C(=O)N[C@@H](CC(C)C)C(=O)N[C@@H](CCC(=O)O)C(=O)N[C@H](C(=O)N[C@@H](CC(N)=O)C(=O)N[C@@H](CCCCN)C(=O)N[C@@H](CCCCN)C(=O)N[C@@H](C)C(N)=O)C(C)C)[C@@H](C)CC)[C@@H](C)CC)C(C)C` [Compound 1] (Ac-FDASIEEVNRRIEESLRRIEESDRRLEVNKKA-NH2) here?
A: >5.88

Q: For `CC[C@H](C)[C@H](NC(=O)[C@H](CCCCN)NC(=O)[C@H](CCCCN)NC(=O)[C@H](CC(C)C)NC(=O)[C@H](CO)NC(=O)[C@H](CCC(=O)O)NC(=O)[C@H](CCC(=O)O)NC(=O)[C@@H](NC(=O)[C@H](CCCCN)NC(=O)[C@H](CCCCN)NC(=O)[C@H](CC(N)=O)NC(=O)[C@@H](NC(=O)[C@H](CCC(=O)O)NC(=O)[C@H](CCC(=O)O)NC(=O)[C@@H](NC(=O)[C@H](CCCCN)NC(=O)[C@H](CCCCN)NC(=O)[C@H](CCCCN)NC(=O)[C@H](CC(=O)O)NC(=O)[C@H](Cc1ccccc1)NC(=O)[C@H](CCC(=O)O)NC(=O)[C@H](CC(=O)O)NC(C)=O)[C@@H](C)CC)C(C)C)[C@@H](C)CC)C(=O)N[C@@H](CCC(=O)O)C(=O)N[C@@H](CCC(=O)O)C(=O)N[C@@H](CO)C(=O)N[C@@H](CC(=O)O)C(=O)N[C@@H](CCCCN)C(=O)N[C@@H](CCCCN)C(=O)N[C@@H](CC(C)C)C(=O)N[C@@H](CCC(=O)O)C(=O)N[C@@H](CCC(=O)O)C(=O)N[C@H](C(N)=O)C(C)C` [Compound 3] (Ac-DEFDKKKIEEVNKKIEESLKKIEESDKKLEEV-NH2), which “Safety index (SI)” value is on record?
A: >1.81

Q: For `CC[C@H](C)[C@H](NC(=O)[C@H](CCCCN)NC(=O)[C@H](CCCCN)NC(=O)[C@H](CC(C)C)NC(=O)[C@H](CO)NC(=O)[C@H](CCC(=O)O)NC(=O)[C@H](CCC(=O)O)NC(=O)[C@@H](NC(=O)[C@H](CCCCN)NC(=O)[C@H](CCCCN)NC(=O)[C@H](CC(N)=O)NC(=O)[C@@H](NC(=O)[C@H](CCC(=O)O)NC(=O)[C@H](CCC(=O)O)NC(=O)[C@@H](NC(=O)[C@H](CCCCN)NC(=O)[C@H](CCCCN)NC(=O)[C@H](CC(=O)O)NC(=O)[C@H](Cc1ccccc1)NC(=O)[C@H](CCC(=O)O)NC(=O)[C@H](CC(=O)O)NC(=O)[C@H](Cc1c[nH]c2ccccc12)NC(C)=O)[C@@H](C)CC)C(C)C)[C@@H](C)CC)C(=O)N[C@@H](CCC(=O)O)C(=O)N[C@@H](CCC(=O)O)C(=O)N[C@@H](CO)C(=O)N[C@@H](CC(=O)O)C(=O)N[C@@H](CCCCN)C(=O)N[C@@H](CCCCN)C(=O)N[C@@H](CC(C)C)C(=O)N[C@@H](CCC(=O)O)C(=O)N[C@@H](CCC(=O)O)C(=O)N[C@H](C(=O)N[C@@H](CC(N)=O)C(=O)N[C@@H](CCCCN)C(=O)N[C@@H](CCCCN)C(=O)N[C@@H](CC(C)C)C(N)=O)C(C)C` [Compound 5] (Ac-WDEFDKKIEEVNKKIEESLKKIEESDKKLEEVNKKL-NH2), which “Safety index (SI)” value is on record?
A: >7.12

Q: How did the “Safety index (SI)” value turn out when `CC[C@H](C)[C@H](NC(=O)[C@H](CCC(=O)O)NC(=O)[C@H](CCC(=O)O)NC(=O)[C@H](CC(C)C)NC(=O)[C@H](CO)NC(=O)[C@H](CCC(=O)O)NC(=O)[C@H](CCC(=O)O)NC(=O)[C@@H](NC(=O)[C@H](CCCCN)NC(=O)[C@H](CCC(=O)O)NC(=O)[C@H](CC(N)=O)NC(=O)[C@@H](NC(=O)[C@H](CCC(N)=O)NC(=O)[C@H](CC(N)=O)NC(=O)[C@@H](NC(=O)[C@H](CCCCN)NC(=O)[C@H](CCC(N)=O)NC(=O)[C@H](CC(N)=O)NC(=O)[C@H](Cc1ccccc1)NC(=O)[C@H](CCC(=O)O)NC(=O)[C@H](C)NC(=O)[C@H](Cc1ccccc1)NC(C)=O)[C@@H](C)CC)C(C)C)[C@@H](C)CC)C(=O)N[C@@H](CCCNC(=N)N)C(=O)N[C@@H](CCCCN)C(=O)N[C@@H](CO)C(=O)N[C@@H](CC(=O)O)C(=O)N[C@@H](CCC(=O)O)C(=O)N[C@@H](CCC(=O)O)C(=O)N[C@@H](CC(C)C)C(=O)N[C@@H](Cc1c[nH]cn1)C(=O)N[C@@H](CC(N)=O)C(=O)N[C@H](C(=O)N[C@@H](CC(N)=O)C(=O)N[C@@H](C)C(=O)N[C@H](C(=O)N[C@H](C(N)=O)[C@@H](C)O)[C@@H](C)O)C(C)C` [Compound 8] (Ac-FAEFNQKINQVNEKIEESLEEIRKSDEELHNVNATT-NH2) was run?
A: >2.12

Q: For `CC[C@H](C)[C@H](NC(=O)[C@H](CCCCN)NC(=O)[C@H](CCCCN)NC(=O)[C@H](CC(C)C)NC(=O)[C@H](CO)NC(=O)[C@H](CCC(=O)O)NC(=O)[C@H](CCC(=O)O)NC(=O)[C@@H](NC(=O)[C@H](CCCCN)NC(=O)[C@H](CCCCN)NC(=O)[C@H](CC(N)=O)NC(=O)[C@@H](NC(=O)[C@H](CCC(=O)O)NC(=O)[C@H](CCC(=O)O)NC(=O)[C@@H](NC(=O)[C@H](CCCCN)NC(=O)[C@H](CCCCN)NC(=O)[C@H](CC(=O)O)NC(=O)[C@H](Cc1ccccc1)NC(=O)[C@H](CCC(=O)O)NC(=O)[C@H](CC(=O)O)NC(=O)[C@H](Cc1c[nH]c2ccccc12)NC(C)=O)[C@@H](C)CC)C(C)C)[C@@H](C)CC)C(=O)N[C@@H](CCC(=O)O)C(=O)N[C@@H](CCC(=O)O)C(=O)N[C@@H](CO)C(=O)N[C@@H](CC(=O)O)C(=O)N[C@@H](CCCCN)C(=O)N[C@@H](CCCCN)C(=O)N[C@@H](CC(C)C)C(=O)N[C@@H](CCC(=O)O)C(=O)N[C@@H](C)C(=O)N[C@@H](C)C(=O)N[C@@H](C)C(=O)N[C@@H](CCCCN)C(=O)N[C@@H](CCCCNC(=O)CCC(=O)O[C@H]1CC[C@@]2(C)C(=CC[C@H]3[C@@H]4CC[C@H]([C@H](C)CCCC(C)C)[C@@]4(C)CC[C@@H]32)C1)C(N)=O` [Compound 13] (Ac-WDEFDKKIEEVNKKIEESLKKIEESDKKLEAAAKK(Succinyl(4-O-cholesteryl))-NH2), which “Safety index (SI)” value is on record?
A: 2358

Q: How did the “Safety index (SI)” value turn out when `CC[C@H](C)[C@H](NC(=O)[C@H](CCCCN)NC(=O)[C@H](CCCCN)NC(=O)[C@H](CC(C)C)NC(=O)[C@H](CO)NC(=O)[C@H](CCC(=O)O)NC(=O)[C@H](CCC(=O)O)NC(=O)[C@@H](NC(=O)[C@H](CCCCN)NC(=O)[C@H](CCCCN)NC(=O)[C@H](CC(N)=O)NC(=O)[C@@H](NC(=O)[C@H](CCC(=O)O)NC(=O)[C@H](CCC(=O)O)NC(=O)[C@@H](NC(=O)[C@H](CCCCN)NC(=O)[C@H](CCCCN)NC(=O)[C@H](CC(=O)O)NC(=O)[C@H](Cc1ccccc1)NC(=O)[C@H](CCC(=O)O)NC(=O)C(CC(=O)O)NC(C)=O)[C@@H](C)CC)C(C)C)[C@@H](C)CC)C(=O)N[C@@H](CCC(=O)O)C(=O)N[C@@H](CCC(=O)O)C(=O)N[C@@H](CO)C(=O)N[C@@H](CC(=O)O)C(=O)N[C@@H](CCCCN)C(=O)N[C@@H](CCCCN)C(=O)N[C@@H](CC(C)C)C(=O)N[C@@H](CCC(=O)O)C(=O)N[C@@H](CCC(=O)O)C(=O)N[C@H](C(=O)N[C@@H](CC(N)=O)C(=O)N[C@@H](CCC(=O)O)C(=O)N[C@@H](C)C(=O)N[C@@H](C)C(=O)N[C@@H](C)C(=O)N[C@@H](CCCCN)C(=O)N[C@@H](CCCCNC(=O)CCC(=O)O[C@H]1CC[C@@]2(C)C(=CC[C@H]3[C@@H]4CC[C@H]([C@H](C)CCCC(C)C)[C@@]4(C)CC[C@@H]32)C1)C(N)=O)C(C)C` (stereo partly drawn) [Compound 14] (Ac-[ξD]EFDKKIEEVNKKIEESLKKIEESDKKLEEVNEAAAKK(Succinyl(4-O-cholesteryl))-NH2) was run?
A: 970

Where a SMILES comes first, the peptide text is derived from it. [ ]: non-standard residue; d: D form. The star is where a group is joined. ξ: configuration not given here. Succinyl(4-O-cholesteryl) = CC(C)CCC[C@@H](C)[C@H]1CC[C@H]2[C@@H]3CC=C4C[C@@H](OC(=O)CCC(=O)*)CC[C@]4(C)[C@H]3CC[C@]12C; ξD = NC(CC(=O)O)C(=O)O
